Experimental data: PubChem BioAssay AID1259414 (Drosophila RNAi Screening Center, 2018)
Purpose: 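Genome-wide screen for host control of endosymbiont load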 (primary screen). System: Drosophila JW18 cells infected with Wolbachia. Reagent: long dsRNA against Drosophila genes, 0.25 µg dsRNA per well of a 384-well plate. Time to read-out: 5 days. Treatment: cells persistently infected with Wolbachia before knock-down; no added drug. Measurement: 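Automated imaging of bacterial rRNA staining divided by host cell count, reported as plate-normalised robust z-score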. Direction: Wolbachia per cell robust z: higher = more Wolbachia per host cell than the plate typical. Hit rule: 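Active if absolute robust z reaches 1.5 in two or more of three replicates, leaving out multi- or no-target dsRNAs, genes unexpressed in JW18 and A1 wells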.
In all, the deposit lists about 24,000 reagents; shown is an unselected part of those with a known target gene and a result. Over the whole deposit, about 1,210 (5%) got an active call. 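Inactive calls also include excluded dsRNAs with several or no targets, genes unexpressed in JW18, and well A1, regardless of score.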

PIG-G (Phosphatidylinositol glycan anchor biosynthesis class G) [DRSC06823] gave Wolbachia per cell robust z, rep 1 = 0.261; Wolbachia per cell robust z, rep 2 = -4.1; Wolbachia per cell robust z, rep 3 = -1.4; inactive.
Depletion of CG32071 [DRSC22298] gave: Wolbachia per cell robust z, rep 1 = 0.809; Wolbachia per cell robust z, rep 2 = 0.0563; Wolbachia per cell robust z, rep 3 = 0.115; inactive.
For CG32071 [DRSC25705], the values are Wolbachia per cell robust z, rep 1 = -0.163; Wolbachia per cell robust z, rep 2 = -0.0949; Wolbachia per cell robust z, rep 3 = -0.406; inactive.
For Cyp308a1 (Cytochrome P450 308a1) [DRSC20238], the values are Wolbachia per cell robust z, rep 1 = 0.27; Wolbachia per cell robust z, rep 2 = -0.392; Wolbachia per cell robust z, rep 3 = 0.0507; inactive.
Knock-down of Cyp308a1 (Cytochrome P450 308a1) [DRSC26958] came out at: Wolbachia per cell robust z, rep 1 = -0.542; Wolbachia per cell robust z, rep 2 = -0.401; Wolbachia per cell robust z, rep 3 = 2.43; inactive.
For CG15498 [DRSC15040], the values are Wolbachia per cell robust z, rep 1 = -0.873; Wolbachia per cell robust z, rep 2 = -0.678; Wolbachia per cell robust z, rep 3 = -0.864; inactive.
Against CG8249 [DRSC07125], the values are Wolbachia per cell robust z, rep 1 = 0.897; Wolbachia per cell robust z, rep 2 = 0.709; Wolbachia per cell robust z, rep 3 = 0.615; inactive.
Against CG33288 [DRSC11484] the deposit lists Wolbachia per cell robust z, rep 1 = -7.66; Wolbachia per cell robust z, rep 2 = 0.36; Wolbachia per cell robust z, rep 3 = 0.874; inactive.
CG34026 [DRSC38799] gave Wolbachia per cell robust z, rep 1 = 0.43; Wolbachia per cell robust z, rep 2 = 0.938; Wolbachia per cell robust z, rep 3 = 0.179; inactive.
Silencing of CG18371 [DRSC06733] gave: Wolbachia per cell robust z, rep 1 = -0.962; Wolbachia per cell robust z, rep 2 = 0.28; Wolbachia per cell robust z, rep 3 = 0.587; inactive.
CG18371 [DRSC41426] gave Wolbachia per cell robust z, rep 1 = 1.21; Wolbachia per cell robust z, rep 2 = 0.812; Wolbachia per cell robust z, rep 3 = 0.287; inactive.
Apoltp (Apolipoprotein lipid transfer particle) [DRSC02508] gave Wolbachia per cell robust z, rep 1 = 0.701; Wolbachia per cell robust z, rep 2 = 0.247; Wolbachia per cell robust z, rep 3 = -0.206; inactive.
For CG17207 [DRSC15198], the values are Wolbachia per cell robust z, rep 1 = -0.117; Wolbachia per cell robust z, rep 2 = -0.112; Wolbachia per cell robust z, rep 3 = -0.0537; inactive.

Laid out differently: entries from further up
{"gene knocked down": "PIG-G (Phosphatidylinositol glycan anchor biosynthesis class G)", "amplicon": "DRSC06823", "Wolbachia per cell robust z, rep 1": 0.261, "Wolbachia per cell robust z, rep 2": -4.1, "Wolbachia per cell robust z, rep 3": -1.4, "activity call": "inactive"}
{"gene knocked down": "CG32071", "amplicon": "DRSC22298", "Wolbachia per cell robust z, rep 1": 0.809, "Wolbachia per cell robust z, rep 2": 0.0563, "Wolbachia per cell robust z, rep 3": 0.115, "activity call": "inactive"}
{"gene knocked down": "CG32071", "amplicon": "DRSC25705", "Wolbachia per cell robust z, rep 1": -0.163, "Wolbachia per cell robust z, rep 2": -0.0949, "Wolbachia per cell robust z, rep 3": -0.406, "activity call": "inactive"}

Further reagents follow.
Against CG34434 [DRSC18134], the entry reads Wolbachia per cell robust z, rep 1 = 1.38; Wolbachia per cell robust z, rep 2 = 0.571; Wolbachia per cell robust z, rep 3 = -0.527; inactive.
With knock-down of CG34434 [DRSC26923] the results were Wolbachia per cell robust z, rep 1 = -2.21; Wolbachia per cell robust z, rep 2 = -1.97; Wolbachia per cell robust z, rep 3 = 0.38; active.
Silencing of CG34434 [DRSC28486] gave: Wolbachia per cell robust z, rep 1 = 0.442; Wolbachia per cell robust z, rep 2 = -0.036; Wolbachia per cell robust z, rep 3 = 0.0264; inactive.
For Alg9 (ALG9, alpha-1,2-mannosyltransferase) [DRSC14407], the values are Wolbachia per cell robust z, rep 1 = -10.5; Wolbachia per cell robust z, rep 2 = -1.47; Wolbachia per cell robust z, rep 3 = 0.0361; inactive.
Knock-down of CCT6 (Chaperonin containing TCP1 subunit 6) [DRSC20095] gave: Wolbachia per cell robust z, rep 1 = 0.745; Wolbachia per cell robust z, rep 2 = 0.517; Wolbachia per cell robust z, rep 3 = 0.715; inactive.
CG9706 [DRSC11095] showed Wolbachia per cell robust z, rep 1 = 0.521; Wolbachia per cell robust z, rep 2 = -0.444; Wolbachia per cell robust z, rep 3 = -1.18; inactive.
Depletion of CG15312 [DRSC18000] resulted in: Wolbachia per cell robust z, rep 1 = 1; Wolbachia per cell robust z, rep 2 = 0.425; Wolbachia per cell robust z, rep 3 = -0.245; inactive.
After knock-down of CG15312 [DRSC27198], the record shows Wolbachia per cell robust z, rep 1 = 0.508; Wolbachia per cell robust z, rep 2 = 0.707; Wolbachia per cell robust z, rep 3 = -0.678; inactive.
After knock-down of CG9886 [DRSC00732], the screen gave Wolbachia per cell robust z, rep 1 = -0.15; Wolbachia per cell robust z, rep 2 = 0.693; Wolbachia per cell robust z, rep 3 = -1.03; inactive.
Silencing of CG9886 [DRSC26380] resulted in: Wolbachia per cell robust z, rep 1 = -0.354; Wolbachia per cell robust z, rep 2 = 0.99; Wolbachia per cell robust z, rep 3 = -0.542; inactive.
With knock-down of CG9886 [DRSC41580] the results were Wolbachia per cell robust z, rep 1 = 0.253; Wolbachia per cell robust z, rep 2 = -2.83; Wolbachia per cell robust z, rep 3 = -1.75; inactive.
